Compound potency records, mixed from different reports. Data source: NIAID ChemDB in PubChem.

All rows: cytotoxicity tests; endpoint: CC50

Two numbers with a dash give a range or band. Neighbouring rows are from separate reports. An empty or dashed field is not shown. CCn is the concentration with n% toxicity to the cells.

smiles,read by,cell line,result
O=C(c1ccccc1)c1ccc(NC(=O)c2cc(Cl)ccc2O)cc1,MTT,Mono Mac 6,48 µM
Nc1nc2ncn(/C=C3\C(F)C3(CO)CO)c2c(=O)[nH]1,,Akata,>100 µM
CC(C)C[C@@H]1NC(=O)[C@@H](CC(C)C)NC(=O)[C@@H](CCCN)NC(=O)[C@H](CC(N)=O)NC(=O)[C@H](C(C)C)NC(=O)[C@H](Cc2c[nH]c3ccccc23)NC1=O,luminescence,Hep2G,>100 µM
Cn1c(=O)cc(Sc2ccc(I)cc2)c2ccccc21,,Huh-Luc-Neo,>100 µM
N#Cc1c(C2CCNCC2)cc(-c2c(O)cccc2OCC2CC2)nc1N,WST,MOLT-4,11 µM
CC1=C[C@H]2[C@@]3(O)[C@H](C)[C@@H](OC(=O)CCc4ccccc4)[C@]4(O)[C@H]([C@@H]3C=C(CO)C[C@]2(O)C1=O)C4(C)C,MTT,C8166,>200 µM
CCCc1c([Se]c2ccccc2)n(COCCOP(=O)([O-])OP(=O)([O-])OCC2O[C@@H](n3cc(C)c(=O)[nH]c3=S)C[C@@H]2F)c(=O)[nH]c1=O,MTT,CEM-T4,>100 µM
Cn1cc(C(=O)O)c(=O)c2cc(N)c(N3CCN(c4cnccn4)CC3)cc21,,C3H/3T3,17 µg/mL
Cc1cn([C@@H]2O[C@H](COC(c3ccccc3)(c3ccccc3)c3ccccc3)[C@@H](F)[C@H]2F)c(=O)[nH]c1=O,,HL-60,>1000 µM
CC[C@@H](C)[C@@H]1NC(=O)[C@@H](Cc2ccc(Cl)cc2)NC(=O)[C@H](CC(C)C)NC(=O)[C@H](Cc2c[nH]c3ccccc23)NC(=O)[C@@H](CCCN)NC(=O)[C@@H](CCCN)NC1=O,luminescence,Hep2G,>100 µM
Cc1cc(C)n2nc(S(=O)(=O)Nc3c(Cl)ccc(C)c3Cl)nc2n1,WST,K562 (CRL-1573),>128 µg/mL
CONC(=O)c1cccc[n+]1[O-],MTT,Huh-luc/neo 7,900 µM
NC[C@H]1O[C@H](O[C@H]2[C@H](O)[C@@H](O[C@H]3O[C@H](CO)[C@@H](O)[C@H](N)[C@H]3O)[C@H](N)C[C@@H]2N)[C@H](O)[C@@H](O)[C@@H]1O,resazurin / fluorescence,J774 macrophages,813 µg/mL
CC(C)=CCC/C(C)=C/[C@H]1C(=O)C(C)=C[C@H]1O,,HOG.R5,74.8 µM
C=C(C)C1CC[C@]2(C(=O)O)CC[C@]3(C)C(CCC4[C@@]5(C)C[C@@H](O)[C@H](OC(C)=O)C(C)(C)C5CC[C@]43C)C12,XTT,1A2,19.8 µg/mL
O=C(CCCCCCCCc1ccccc1)c1c(O)cc(O)cc1O,resazurin,BC,8.23 µg/mL
CC1=C[C@H]2[C@@]3(O)[C@H](C)[C@@H](OC(=O)CCCCCBr)[C@]4(OC(=O)CCCCCBr)[C@H]([C@@H]3C=C(CO)C[C@]2(O)C1=O)C4(C)C,MTT,C8166,22.2 µM
Cn1c(=O)cc(Sc2ccc(NC(=O)[C@H](Cc3ccccc3)NC(=O)OC(C)(C)C)cc2)c2ccccc21,,Huh-Luc-Neo,>100 µM
CC(C)N(Cc1cccc(OCCCCCC(=O)O)c1)C(=O)c1ccc(-c2ccc3c(c2)OCO3)cc1,,BJ,>20 µM
CC(=O)O[C@H]1[C@@H](Oc2c(C)c(O)c3c(=O)cc(C)oc3c2C)O[C@H](CO)[C@@H](O)[C@@H]1O,,HEP-2,83.3 µg/mL
Cn1cc(NC(=O)Nc2cc(C(=O)Nc3cc(C(=O)Nc4ccc(S(=O)(=O)O)c5cc(S(=O)(=O)O)ccc45)n(C)c3)n(C)c2)cc1C(=O)Nc1cc(C(=O)Nc2ccc(S(=O)(=O)O)c3cc(S(=O)(=O)O)ccc23)n(C)c1,,Monocytes,<200 µM
COC(=O)c1cc(O)cc(OC)c1C(=O)c1c(O)cc(C)c(Cl)c1O,MTT,Huh7.5.1,>50 µM
O=C(NCCCl)Oc1ccc(Br)cc1C(=O)Nc1ccc(Cl)c(Cl)c1,MTT,Mono Mac 6,6.9 µM
CNC(=O)c1c(Br)c(-n2c(NC(C)C)nc3c(c2=O)C[C@@H](C)N(C(=O)c2ccc(Cl)c(C(F)(F)F)c2)C3)nn1C,luminescence,HepG2,>50 µM
C/C=C/c1occ(C(=O)c2c(OC)cc(OC)cc2C(=O)OC)c(=O)c1OC,MTT,Huh7.5.1,>50 µM
O=C(NN1C(=O)c2ccccc2C1=O)c1ccc(-n2cccc2)cc1,MTT,Lung adenocarcinoma cells,254 µM
CC(C)C[C@@H]1NC(=O)[C@H](Cc2c[nH]c3ccccc23)NC(=O)[C@@H](CCCN)NC(=O)[C@H](CC(N)=O)NC(=O)[C@H](C(C)C)NC(=O)[C@@H](CC(C)C)NC1=O,luminescence,Hep2G,56 µM
Cc1ccc(C)n1-c1ccc(C(=O)NN2C(=O)c3c(Cl)c(Cl)c(Cl)c(Cl)c3C2=O)cc1,MTT,Lung adenocarcinoma cells,250 µM
O=C1O[C@@H](CNS(=O)(=O)c2ccc(F)cc2)CN1c1ccc(N2CCOCC2)c(F)c1,MTT,Human foreskin fibroblasts,>100 µg/mL
N=C(N)c1ccnc(-c2cc(-c3cc(C(=N)N)ccn3)on2)c1,resazurin,L6 rat myoblasts,130 µM
Cc1cn([C@H]2C[C@H](N=[N+]=[N-])[C@@H](COP(=O)([O-])OP(=O)([O-])OCC3O[C@@H](n4cc(C)c(=O)[nH]c4=S)C[C@@H]3F)O2)c(=O)[nH]c1=O,MTT,CEM-T4,>100 µM
Cc1cn([C@@H]2O[C@H](CO)[C@@H](F)[C@@H]2F)c(=O)[nH]c1=O,,HL-60,>1000 µM
Cn1cc(C(=O)O)c(=O)c2cc(N)c(N3CCN(c4cccc(C(F)(F)F)c4)CC3)cc21,,C3H/3T3,0.67 µg/mL
CNC(=O)c1ccc(-n2c(NC(C)C)nc3c(c2=O)C[C@@H](C)N(C(=O)c2ccc(Cl)c(C(F)(F)F)c2F)C3)cc1,luminescence,HepG2,>50 µM
Nc1cc2c(=O)c(C(=O)O)cn(C3CC3)c2cc1N1CCN(c2cccc(C(F)(F)F)c2)CC1,,C3H/3T3,2.9 µg/mL
Cn1c(=O)cc(Sc2ccc(Br)cc2)c2ccccc21,,Huh-Luc-Neo,>100 µM
CNC(=O)[C@@H]1CC[C@@H](n2c(NC(C)C)nc3c(c2=O)C[C@@H](C)N(C(=O)c2ccc(Cl)c(C(F)(F)F)c2)C3)C1,luminescence,HepG2,34.4 µM
Cc1ccc2c(c1)c(Sc1ccc(Br)cc1)cc(=O)n2C,,Huh-Luc-Neo,10–100 µM
CCCNC(=O)Oc1ccc(Cl)cc1C(=O)Nc1ccc(C(=O)c2ccccc2)cc1,MTT,Mono Mac 6,18.7 µM
Nc1nc(Cl)c2ncn(C=C3C[C@H]3CO)c2n1,,H-1,>50 µM
CC/C=C\C/C=C\C/C=C\C/C=C\C/C=C\C/C=C\CCC(=O)O[C@@H]1[C@@H](C)[C@@]2(O)[C@@H](C=C(COC(C)=O)C[C@]3(O)C(=O)C(C)=C[C@@H]23)[C@@H]2C(C)(C)[C@]12O,MTT,C8166,55.9 µM
Cc1cn2c(nc1=O)OC1[C@H]2O[C@H](COC(c2ccccc2)(c2ccccc2)c2ccccc2)[C@H]1OC(=S)n1ccnc1,,HL-60,>1000 µM
Nc1nc(Cl)c2ncn(/C=C3/C[C@H]3CO)c2n1,visual reading,MEF,270 µM
Cn1c(=O)cc(Sc2cc(Cl)ccc2Cl)c2ccccc21,,Huh-Luc-Neo,>100 µM
[N-]=[N+]=N[C@H]1[C@@H](F)[C@H](N2C=CC(N)NC2=O)O[C@@H]1CO,,VERO B,>400 µg/mL
COc1ccc(C[C@H](N)C(=O)N[C@H]2[C@@H](O)[C@H](n3cnc4c(N(C)C)ncnc43)O[C@@H]2CO)cc1,WST,HEPG2 (HB-8065),0.34 µg/mL
CCOC(=O)CCCCCOc1cccc(CN(C(=O)c2ccc(-c3ccoc3)cc2)C(C)C)c1,,HEK 293,>20 µM
CCCCCCCCC(=O)O[C@@]12[C@H](OC(=O)/C=C/c3ccc4c(c3)OCO4)[C@@H](C)[C@@]3(O)[C@@H](C=C(CO)C[C@]4(O)C(=O)C(C)=C[C@@H]34)[C@@H]1C2(C)C,MTT,C8166,37.7 µM
NC(=O)CCNC(=O)c1ccccc1SCc1ccc(OP2(=O)OCc3ccccc3O2)cc1,XTT,Macrophage,>50 µM
Cc1cn([C@@H]2O[C@H](COC(c3ccccc3)(c3ccccc3)c3ccccc3)C[C@H]2F)c(=O)nc1N,,HL-60,>1000 µM
CCOC(=O)COc1ccc(CN(C(=O)c2ccc(-c3ccc4c(c3)OCO4)cc2)C(C)C)cc1,,HEK 293,>20 µM
CC(=O)NC[C@H]1CN(c2ccc(N3CCN(C4=NS(=O)(=O)c5ccccc5N4c4ccccc4)CC3)c(F)c2)C(=O)O1,MTT,Human foreskin fibroblasts,>50 µg/mL
O=C(NN1C(=O)c2c(Cl)c(Cl)c(Cl)c(Cl)c2C1=O)c1ccc(-n2cccc2)cc1,MTT,Lung adenocarcinoma cells,255 µM
CCc1cccc(C)c1NS(=O)(=O)c1nc2nc(C)cc(C3CC3)n2n1,WST,HEPG2 (HB-8065),>128 µg/mL
Cc1ccc(C)n1-c1nc(-c2ccc(Br)cc2)cs1,MTT,Lung adenocarcinoma cells,253 µM
C=CCCC1=NCC(O[Si](C)(C)C(C)(C)C)c2cc(OC)c(OC)cc21,,RAJI,<7.5 µM
Cc1cn([C@H]2O[C@H](CO)[C@@H](N=[N+]=[N-])[C@H]2F)c(=O)nc1N,,VERO B,>400 µg/mL
O=C(NNCc1cccc(O)c1O)c1ccccc1O,ATP,HEP-2,570 µM
Cc1cn([C@@H]2O[C@H](COC(c3ccccc3)(c3ccccc3)c3ccccc3)[C@@H](N=[N+]=[N-])[C@@H]2O)c(=O)[nH]c1=O,,HL-60,>1000 µM
O=C(c1ccccc1)c1ccc(NC(=O)c2cc(Br)ccc2O)cc1,MTT,Mono Mac 6,21.8 µM
CC(C)C[C@@H]1NC(=O)[C@H](C)NC(=O)[C@@H](CCCN)NC(=O)[C@H](CC(N)=O)NC(=O)[C@H](C(C)C)NC(=O)[C@@H](CC(C)C)NC1=O,luminescence,Hep2G,>100 µM
CCn1nc(-n2c(NC(C)C)nc3c(c2=O)C[C@@H](C)N(C(=O)c2ccc(Cl)c(C(F)(F)F)c2)C3)cc1C(=O)NC,luminescence,HepG2,>50 µM
COc1cc([C@@H]2CCc3ccc(O)cc3O2)ccc1O,resazurin,BC,>20 µg/mL
CC1=C[C@H]2[C@@]3(O)[C@H](C)[C@@H](OC(=O)CCCCCCCCCCBr)[C@]4(OC(=O)CCCCCCCCCCBr)[C@H]([C@@H]3C=C(CO)C[C@]2(O)C1=O)C4(C)C,MTT,C8166,>200 µM
CC1=C[C@H](O)[C@@H](/C=C(/C)C/C=C/C(C)(C)O)C1=O,,HOG.R5,49.6 µM
O=C(N/N=C/c1ccc(Oc2no[n+]([O-])c2-c2ccccc2)cc1)c1ccncc1,resazurin,J774A.1,409 µM
Clc1ccc(-c2csc(-n3cccc3)n2)cc1,MTT,Lung adenocarcinoma cells,245 µM
C=C(C)C1CC[C@@H]2CC[C@]3(C)C(CCC4[C@@]5(C)CC[C@H](O)C(C)(C)C5CC[C@]43C)C12,XTT,1A2,11.6 µg/mL
COc1ccc(/C=C/C(=O)O[C@@H]2[C@@H](C)[C@@]3(O)[C@@H](C=C(CO)C[C@]4(O)C(=O)C(C)=C[C@@H]34)[C@@H]3C(C)(C)[C@]23OC(C)=O)cc1,MTT,C8166,109 µM
CC(C)C[C@H]1NC(=O)[C@H](C)NC(=O)[C@H](Cc2c[nH]c3ccccc23)NC(=O)[C@@H](CCCN)NC(=O)[C@H](CC(N)=O)NC(=O)[C@H](C(C)C)NC1=O,luminescence,Hep2G,>100 µM
O=C(NCCCl)Oc1ccc(Br)cc1C(=O)Nc1ccc(C(F)(F)F)cc1,MTT,Mono Mac 6,9.3 µM
Nc1nc2c(ncn2COCCO)c(=O)[nH]1,,Macrophages,>20 µM
CCc1ccc2c(c1)c(Sc1ccc(N)cc1)cc(=O)n2C,,Huh-Luc-Neo,>100 µM
CC(=NNC(=O)c1snnc1C(F)(F)F)c1ccccn1,MTT,MDA-MB-231,2.74 µg/mL
CCCCCCCCC(=O)O[C@@H]1[C@@H](C)[C@@]2(O)[C@@H](C=C(CO)C[C@@]3(O)C(=O)C(C)=C[C@@H]23)[C@@H]2C(C)(C)[C@]12OC(=O)CCCCCCCC,MTT,C8166,>200 µM
Nc1nc2c(ncn2COC2COP(=O)(O)OC2)c(=O)[nH]1,,GPE,330 µg/mL
CC(C)CC1C(=O)N[C@H](CC(C)C)C(=O)N[C@@H](C(C)C)C(=O)N(C)C(CC(N)=O)C(=O)N[C@H](CCCN)C(=O)N[C@@H](Cc2c[nH]c3ccccc23)C(=O)N1C,luminescence,Hep2G,>100 µM

A second listing of 10 rows from above:

smiles	read by	cell line	result
CCOC(=O)CCCCCOc1cccc(CN(C(=O)c2ccc(-c3ccoc3)cc2)C(C)C)c1		HEK 293	>20 µM
O=C(NN1C(=O)c2c(Cl)c(Cl)c(Cl)c(Cl)c2C1=O)c1ccc(-n2cccc2)cc1	MTT	Lung adenocarcinoma cells	255 µM
O=C(NN1C(=O)c2ccccc2C1=O)c1ccc(-n2cccc2)cc1	MTT	Lung adenocarcinoma cells	254 µM
CCCc1c([Se]c2ccccc2)n(COCCOP(=O)([O-])OP(=O)([O-])OCC2O[C@@H](n3cc(C)c(=O)[nH]c3=S)C[C@@H]2F)c(=O)[nH]c1=O	MTT	CEM-T4	>100 µM
CCc1ccc2c(c1)c(Sc1ccc(N)cc1)cc(=O)n2C		Huh-Luc-Neo	>100 µM
Nc1nc(Cl)c2ncn(C=C3C[C@H]3CO)c2n1		H-1	>50 µM
CNC(=O)c1ccc(-n2c(NC(C)C)nc3c(c2=O)C[C@@H](C)N(C(=O)c2ccc(Cl)c(C(F)(F)F)c2F)C3)cc1	luminescence	HepG2	>50 µM
NC(=O)CCNC(=O)c1ccccc1SCc1ccc(OP2(=O)OCc3ccccc3O2)cc1	XTT	Macrophage	>50 µM
CC(=NNC(=O)c1snnc1C(F)(F)F)c1ccccn1	MTT	MDA-MB-231	2.74 µg/mL
Nc1nc(Cl)c2ncn(/C=C3/C[C@H]3CO)c2n1	visual reading	MEF	270 µM